Compound potency records, mixed from different reports. Data source: NIAID ChemDB in PubChem.

Shared fields: tests in culture; agent: HIV-1; cell line: MT-4; measure: fold resistance

Rows are shuffled and stem from different studies.

SMILES | strain or isolate | changes | read by | setting | value
CC(C)CN(C[C@@H](O)[C@H](Cc1ccccc1)NC(=O)O[C@H]1CCO[C@H]2OCC[C@H]21)S(=O)(=O)c1ccc2nc(NC3CC3)sc2c1 | NL4-3 | L10I L33I M36I M46I I54V K55R I62V L63P A71V G73S V82T L90M I93L | p24 / luminescence | - | 63
O=C(N[C@H]1c2ccccc2OC[C@H]1O)[C@H](Cc1nnc(-c2ccccc2)o1)C[C@H](O)CN1CCN(Cc2ccc(-c3ccc(Cl)cc3)o2)C[C@H]1C(=O)NCC(F)(F)F | Q-60 Clinical isolate | PR-L10I N37S R41K M46I I54V I62V L63P A71V V77I V82A L90M I93L | p24 | - | 4
CC(=O)Oc1ccc(/C=C/C(=O)O[C@@H](C(=O)O)[C@@H](OC(=O)/C=C/c2ccc(OC(C)=O)c(OC(C)=O)c2)C(=O)O)cc1OC(C)=O | NL4-3 | AMD3100-resistant | cytopathic effect / MTT | - | >9
CC(C)(C)NC(=O)[C@@H]1C[C@@H]2CCCC[C@@H]2CN1C[C@@H](O)[C@H](Cc1ccccc1)NC(=O)[C@H](CC(N)=O)NC(=O)c1ccc2ccccc2n1 | NL4-3 | PR-M46I L63P V82T I84V | p24 | - | 8
CCCc1nnc(C[C@H](C[C@H](O)CN2CCN(C(C)(C)c3ncc(-c4ccc(Cl)cc4)o3)C[C@H]2C(=O)NCC(F)(F)F)C(=O)N[C@H]2c3ccccc3OC[C@H]2O)o1 | Q-60 Clinical isolate | PR-L10I N37S R41K M46I I54V I62V L63P A71V V77I V82A L90M I93L | p24 | - | 1
CC(C)CN(C[C@@H](O)[C@H](Cc1ccccc1)NC(=O)O[C@H]1CCOC1)S(=O)(=O)c1ccc(N)cc1 | NL4-3 | L10F K20T D30N K45I A71V V77I | p24 / luminescence | - | 1.6
Cc1nnc(C[C@H](C[C@H](O)CN2CCN(C(C)(C)c3ncc(-c4ccc(F)cc4)o3)C[C@H]2C(=O)NCC(F)(F)F)C(=O)N[C@H]2c3ccccc3OC[C@H]2O)o1 | Q-60 Clinical isolate | PR-L10I N37S R41K M46I I54V I62V L63P A71V V77I V82A L90M I93L | p24 | - | 0.248
CN[C@H]1CO[C@@H]2OCC[C@H](OC(=O)N[C@@H](Cc3cccc(OC)c3)[C@H](O)CN(CC(C)C)S(=O)(=O)c3ccc4nc(NC(C)C)sc4c3)[C@@H]21 | NL4-3 | L10F K20T D30N K45I A71V V77I | p24 / luminescence | - | 2
Cc1nnc(C[C@H](C[C@H](O)CN2CCN(Cc3ccc(-c4ccc(Cl)cc4)o3)C[C@H]2C(=O)NCC(F)(F)F)C(=O)N[C@H]2c3ccccc3OC[C@H]2O)o1 | V-18 Clinical isolate | PR-L10I M36I N37D M46I R57K L63P A71V G73S I84V L90M I93L | p24 | - | 1
O=c1[nH]cnc2c1ncn2[C@H]1CC[C@@H](CO)O1 | NI-10.93 (HXB2 RT T69N K70R Q151M) | RT-T69N K70R Q151M | cytopathic effect | - | >4.04
CC(C)=CCN1c2cc(Cl)cc3[nH]c(=S)n(c23)C[C@@H]1C | - | RT-K70R | - | - | 1
COC(=O)N[C@H](C(=O)N[C@@H](Cc1ccccc1)[C@@H](O)CN(Cc1ccc(-c2ccccn2)cc1)NC(=O)[C@@H](NC(=O)OC)C(C)(C)C)C(C)(C)C | NL4-3 | L23I E34Q K43I M46I I50L G51A L63P A71V V82A T91A | p24 / luminescence | - | >213
Nc1ccn([C@H]2CC[C@@H](CO)O2)c(=O)n1 | Clinical isolate | ddI-resistant | - | clinical isolate | 1.625
Nc1ccn([C@H]2CC[C@@H](CO)O2)c(=O)n1 | 126 3TC (RT-M184V) | RT-M184V | p24 | - | 8
O=C(N[C@H]1c2ccccc2OC[C@H]1O)[C@H](Cc1nnco1)C[C@H](O)CN1CCN(Cc2ccc(-c3ccc(Cl)cc3)o2)C[C@H]1C(=O)NCC(F)(F)F | K-60 Clinical isolate | PR-L10I M46I I54V Q58E L63P I64V V77I V82F I84V L90M I93L | p24 | - | 1
CC(=O)Oc1ccc(/C=C/C(=O)O[C@H](C(=O)O)[C@H](OC(=O)/C=C/c2ccc(OC(C)=O)c(OC(C)=O)c2)C(=O)O)cc1OC(C)=O | NL4-3 | AMD2763-resistant | - | - | >11.9
Nc1ccn([C@H]2CC[C@@H](CO)O2)c(=O)n1 | BI-12.96 (HXB2(RT-A62V S68G T69D V75I F77L F116Y Q151M)) | RT-A62V S68G T69D V75I F77L F116Y Q151M | cytopathic effect | - | >23.4
CN[C@H]1CO[C@@H]2OCC[C@H](OC(=O)N[C@@H](Cc3ccccc3)[C@H](O)CN(CC(C)C)S(=O)(=O)c3ccc4nc(NC5CC5)sc4c3)[C@@H]21 | NL4-3 | L10I I15V K20R L24I V32I M36I M46I I54V I62V L63P K70Q V82A L88M | p24 / luminescence | - | 0.5
CC(C)CN(C[C@@H](O)[C@H](Cc1ccccc1)NC(=O)[C@H](CC(N)=O)NC(=O)c1ccc2ccccc2n1)C(=O)NC(C)(C)C | NL4-3 | PR-M46I L63P V82T I84V | p24 | - | 7.5
CCc1cc(NCc2nc3c(Cl)ccc(Cl)c3o2)c(=O)[nH]c1C | NL4-3 | RT-A98G | p24 | - | 8
CC(C)c1nc(CN(C)C(=O)N[C@H](C(=O)N[C@@H](Cc2ccccc2)C[C@H](O)[C@H](Cc2ccccc2)NC(=O)OCc2cncs2)C(C)C)cs1 | NL4-3 | PR-D30N A71V | p24 | - | 0.2
Cc1nnc(C[C@H](C[C@H](O)CN2CCN(C(C)(C)c3ncc(-c4ccc(Cl)cc4)o3)C[C@H]2C(=O)NCC(F)(F)F)C(=O)N[C@H]2c3ccccc3OC[C@H]2O)o1 | V-18 Clinical isolate | PR-L10I M36I N37D M46I R57K L63P A71V G73S I84V L90M I93L | p24 | - | 0.252
Nc1ccn([C@H]2CC[C@@H](CO)O2)c(=O)n1 | HXB2D (RT-K65R) | RT-K65R | p24 | - | 12.4
Cc1cn([C@H]2C[C@H](N=[N+]=[N-])[C@@H](CO)O2)c(=O)[nH]c1=O | HXB2-D294 (RT-P294S) | RT-P294S | RT activity | - | 1.3
Cc1cn([C@H]2C=C[C@@H](CO)O2)c(=O)[nH]c1=O | FO-08.96 (HXB2 RT F77L F116Y Q151M) | RT-F77L F116Y Q151M | cytopathic effect | - | >40

For reference, 3 entries again:

{"SMILES": "Cc1cn([C@H]2C[C@H](N=[N+]=[N-])[C@@H](CO)O2)c(=O)[nH]c1=O", "strain or isolate": "HXB2-D294 (RT-P294S)", "changes": "RT-P294S", "read by": "RT activity", "value": "1.3"}
{"SMILES": "CC(C)CN(C[C@@H](O)[C@H](Cc1ccccc1)NC(=O)O[C@H]1CCO[C@H]2OCC[C@H]21)S(=O)(=O)c1ccc2nc(NC3CC3)sc2c1", "strain or isolate": "NL4-3", "changes": "L10I L33I M36I M46I I54V K55R I62V L63P A71V G73S V82T L90M I93L", "read by": "p24 / luminescence", "value": "63"}
{"SMILES": "CC(=O)Oc1ccc(/C=C/C(=O)O[C@H](C(=O)O)[C@H](OC(=O)/C=C/c2ccc(OC(C)=O)c(OC(C)=O)c2)C(=O)O)cc1OC(C)=O", "strain or isolate": "NL4-3", "changes": "AMD2763-resistant", "value": ">11.9"}

Fold resistance: result on the changed form divided by that on wild type. An empty or dashed field is not shown.